A mixed list of measured activities; the numbers were collected in NIAID ChemDB.

Shared fields: growth or infection tests; organism: Haemophilus influenzae; read-out: MIC

Two numbers with a dash give a range or band.

structure,strain or isolate,result
CC[C@H]1OC(=O)[C@H](C)C(=O)[C@H](C)[C@@H](O[C@@H]2O[C@H](C)C[C@H](N(C)C)[C@H]2O)[C@@]2(C)C[C@@H](C)C(=NC(C)=O)[C@H](C)C(OC/C(=C\c3ccccc3)CO2)[C@]1(C)O,33929 (ampicillin-resistant),32 µg/mL
CC[C@H]1OC(=O)[C@H](C)C(=O)[C@H](C)[C@@H](O[C@@H]2O[C@H](C)C[C@H](N(C)C)[C@H]2O)[C@](C)(OC)C[C@@H](C)C(=O)[C@H](C)[C@H]2N(CCCCn3cnc(-c4cccnc4)c3)C(=O)O[C@]12C,33929 (ampicillin-resistant),2 µg/mL
CC[C@H]1OC(=O)[C@H](C)C(=O)[C@H](C)[C@@H](O[C@@H]2O[C@H](C)C[C@H](N(C)C)[C@H]2O)[C@@]2(C)C[C@@H](C)C(=NC(C)=O)[C@H](C)C(OC/C(=N\OCc3ccccc3)CO2)[C@]1(C)O,33929 (ampicillin-resistant),8 µg/mL
C=CCOC[C@H]1/C=C(C)/C=C/C(=O)[C@H](C)CC(C=O)[C@H](O[C@@H]2O[C@H](C)[C@@H](O)[C@H](N(C)C)[C@H]2O)[C@@H](C)[C@H](O)CC(=O)O[C@@H]1CC,33929 (ampicillin-resistant),1 µg/mL
CC(=O)NC[C@H]1CN(c2ccc(-c3ccnn3C)c(F)c2)C(=O)O1,UC 30063,8 µg/mL
CC[C@H]1OC(=O)[C@H](C)[C@@H](O[C@H]2C[C@@](C)(OC)[C@@H](O)[C@H](C)O2)[C@H](C)[C@@H](O[C@H]2O[C@@H](C)C[C@@H](N(C)C)[C@@H]2O)[C@](C)(O)C[C@@H](C)C(=O)[C@H](C)[C@@H](O)[C@]1(C)O,33929 (ampicillin-resistant),4 µg/mL
CC(=O)NC[C@H]1CN(c2ccc(-c3cnn(C(c4ccccc4)(c4ccccc4)c4ccccc4)c3)c(F)c2)C(=O)O1,UC 30063,>32 µg/mL
C=CC(=O)NC[C@H]1CN(c2ccc(C3CCS(=O)(=O)CC3)c(F)c2)C(=O)O1,UC 30063,2 µg/mL
CC[C@H]1OC(=O)[C@H](C)C(=O)[C@H](C)[C@@H](O[C@@H]2O[C@H](C)C[C@H](N(C)C)[C@H]2O)[C@@]2(C)C[C@@H](C)C(=NC(C)=O)[C@H](C)[C@@H](OC/C(=N\OCCCc3ccccc3)CO2)[C@]1(C)O,33929 (ampicillin-resistant),32 µg/mL
C=C1COC2[C@@H](C)C(=NC(C)=O)[C@H](C)C[C@@](C)(OC1)[C@H](O[C@@H]1O[C@H](C)C[C@H](N(C)C)[C@H]1O)[C@@H](C)C(=O)[C@@H](C)C(=O)O[C@H](CC)[C@@]2(C)O,33929 (ampicillin-resistant),>64 µg/mL
CC[C@H]1OC(=O)[C@H](C)C(=O)[C@H](C)[C@@H](O[C@@H]2O[C@H](C)C[C@H](N(C)C)[C@H]2O)[C@](C)(OC)C[C@@H](C)C(=O)[C@H](C)[C@H]2N(CCCCn3cnc(-c4cccnc4)c3)C(=O)O[C@]12C,33929 (ampicillin-resistant),2 µg/mL
CC[C@H]1OC(=O)[C@H](C)C(=O)[C@H](C)[C@@H](O[C@@H]2O[C@H](C)C[C@H](N(C)C)[C@H]2O)[C@@]2(C)C[C@@H](C)C(=NC(C)=O)[C@H](C)[C@@H](OC/C(=N\OCc3ccc(C(N)=O)cc3)CO2)[C@]1(C)O,33929 (ampicillin-resistant),4 µg/mL
CC[C@H]1OC(=O)[C@H](C)C(=O)[C@H](C)[C@@H](O[C@@H]2O[C@H](C)C[C@H](N(C)C)[C@H]2O)[C@@]2(C)C[C@@H](C)C(=NC(C)=O)[C@H](C)C(OC/C(=C\C=C\c3ccc([N+](=O)[O-])cc3)CO2)[C@]1(C)O,33929 (ampicillin-resistant),32 µg/mL
CC[C@H]1OC(=O)C[C@@H](O)[C@H](C)[C@@H](O[C@@H]2O[C@H](C)[C@@H](O)[C@H](N(C)C)[C@H]2O)C(C=O)C[C@@H](C)C(=O)/C=C/C(C)=C/[C@@H]1COC/C=C/c1cnc2ccccc2c1,33929 (ampicillin-resistant),8 µg/mL
CC[C@H]1OC(=O)[C@@](C)(F)C(=O)[C@H](C)[C@@H](O[C@@H]2O[C@H](C)C[C@H](N(C)C)[C@H]2O)[C@@]2(C)C[C@@H](C)C(=NC(C)=O)[C@H](C)[C@@H](OC/C(=N/OCc3ccc(-c4cccc(N)n4)s3)CO2)[C@]1(C)O,33929 (ampicillin-resistant),4 µg/mL
CC(=O)NC[C@H]1CN(c2ccc(-c3csc(C)c3)c(F)c2)C(=O)O1,UC 30063,>16 µg/mL
CC[C@H]1OC(=O)[C@H](C)C(=O)[C@H](C)[C@@H](O[C@@H]2O[C@H](C)C[C@H](N(C)C)[C@H]2O)[C@](C)(OC)C[C@@H](C)C(=O)[C@H](C)[C@H]2N(CCCCn3cnc(-c4cccnc4)c3)C(=O)O[C@]12C,33929 (ampicillin-resistant),2 µg/mL
CC[C@H]1OC(=O)[C@@](C)(F)C(=O)[C@H](C)[C@@H](O[C@@H]2O[C@H](C)C[C@H](N(C)C)[C@H]2O)[C@@]2(C)C[C@@H](C)C(=NC(C)=O)[C@H](C)[C@@H](OC/C(=N\OCc3ccc(-n4cccn4)nc3)CO2)[C@]1(C)O,33929 (ampicillin-resistant),4 µg/mL
CC(C)(C)[C@H](NC(=O)C(CC1CCCC1)CN(O)C=O)C(=O)N1CCN(Cc2nccs2)CC1,Isolate 78025,4 µg/mL
CC(=O)NC[C@H]1CN(c2ccc(C3CCS(=O)(=O)CC3)c(F)c2)C(=O)O1,UC 30063,2–4 µg/mL
CC[C@H]1OC(=O)C[C@@H](O)[C@H](C)[C@@H](O[C@@H]2O[C@H](C)[C@@H](O)[C@H](N(C)C)[C@H]2O)C(C=O)C[C@@H](C)C(=O)/C=C/C(C)=C/[C@@H]1COC(=O)NCCc1ccccc1,33929 (ampicillin-resistant),1 µg/mL
O=CN(O)CCCP(=O)(O)O,ATCC31517,≤1 µg/mL
CC[C@H]1OC(=O)[C@H](C)C(=O)[C@H](C)[C@@H](O[C@@H]2O[C@H](C)C[C@H](N(C)C)[C@H]2O)[C@@]2(C)C[C@@H](C)C(=NC(C)=O)[C@H](C)C(OC/C(=N\OCC#Cc3cccc(N)n3)CO2)[C@]1(C)O,33929 (ampicillin-resistant),4 µg/mL
CC[C@H]1OC(=O)C[C@@H](O)[C@H](C)[C@@H](O[C@@H]2O[C@H](C)[C@@H](O)[C@H](N(C)C)[C@H]2O)C(C=O)C[C@@H](C)C(=O)/C=C/C(C)=C/[C@@H]1COC(=O)Nc1ccc(Br)cc1,33929 (ampicillin-resistant),1 µg/mL
CC[C@H]1OC(=O)[C@H](C)C(=O)[C@H](C)[C@@H](O[C@@H]2O[C@H](C)C[C@H](N(C)C)[C@H]2O)[C@@]2(C)C[C@@H](C)C(=NC(C)=O)[C@H](C)[C@@H](OC/C(=N\OCc3ccc(-c4cccc(N)n4)s3)CO2)[C@]1(C)O,33929 (ampicillin-resistant),4 µg/mL
CC[C@H]1OC(=O)[C@H](C)C(=O)[C@H](C)[C@@H](O[C@@H]2O[C@H](C)C[C@H](N(C)C)[C@H]2O)[C@@]2(C)C[C@@H](C)C(=NC(C)=O)[C@H](C)[C@@H](OC/C(=N\OCc3cccc(N)n3)CO2)[C@]1(C)O,33929 (ampicillin-resistant),4 µg/mL
CC[C@H]1OC(=O)[C@H](C)C(=O)[C@H](C)[C@@H](O[C@@H]2O[C@H](C)C[C@H](N(C)C)[C@H]2O)[C@@]2(C)C[C@@H](C)C(=NC(C)=O)[C@H](C)[C@@H](OC/C(=N/OCc3ccc(-c4cccc(N)n4)s3)CO2)[C@]1(C)O,33929 (ampicillin-resistant),16 µg/mL
CC[C@H]1OC(=O)[C@H](C)C(=O)[C@H](C)[C@@H](O[C@@H]2O[C@H](C)C[C@H](N(C)C)[C@H]2O)[C@@]2(C)C[C@@H](C)C(=NC(C)=O)[C@H](C)[C@@H](OC/C(=N\Oc3ccc(-c4nccs4)nc3)CO2)[C@]1(C)O,33929 (ampicillin-resistant),4 µg/mL
C=CCn1cc(-c2ccc(N3C[C@H](CNC(C)=O)OC3=O)cc2F)cn1,UC 30063,>16 µg/mL
CC[C@H]1OC(=O)[C@@](C)(F)C(=O)[C@H](C)[C@@H](O[C@@H]2O[C@H](C)C[C@H](N(C)C)[C@H]2O)[C@@]2(C)C[C@@H](C)C(=NC(C)=O)[C@H](C)[C@@H](OC/C(=N\OCc3ccc(-c4csnn4)nc3)CO2)[C@]1(C)O,33929 (ampicillin-resistant),4 µg/mL
CC[C@H]1OC(=O)C[C@@H](O)[C@H](C)[C@@H](O[C@@H]2O[C@H](C)[C@@H](O)[C@H](N(C)C)[C@H]2O)C(C=O)C[C@@H](C)C(=O)/C=C/C(C)=C/[C@@H]1COC(=O)Nc1ccc([N+](=O)[O-])cc1,33929 (ampicillin-resistant),2 µg/mL
CC[C@H]1OC(=O)[C@H](C)C(=O)[C@H](C)[C@@H](O[C@@H]2O[C@H](C)C[C@H](N(C)C)[C@H]2O)[C@@]2(C)C[C@@H](C)C(=NC(C)=O)[C@H](C)C(OC/C(=C\C=C\c3cccnc3)CO2)[C@]1(C)O,33929 (ampicillin-resistant),8 µg/mL
CC[C@H]1OC(=O)C[C@@H](O)[C@H](C)[C@@H](O[C@@H]2O[C@H](C)[C@@H](O)[C@H](N(C)C)[C@H]2O)C(C=O)C[C@@H](C)C(=O)/C=C/C(C)=C/[C@@H]1COCc1ccccc1,33929 (ampicillin-resistant),0.5 µg/mL
CC[C@H]1OC(=O)[C@@](C)(F)C(=O)[C@H](C)[C@@H](O[C@@H]2O[C@H](C)C[C@H](N(C)C)[C@H]2O)[C@@]2(C)C[C@@H](C)C(=NC(C)=O)[C@H](C)[C@@H](OC/C(=N\OCC#Cc3cccc(N)n3)CO2)[C@]1(C)O,33929 (ampicillin-resistant),4 µg/mL

Repeating the final 3 entries:

structure | strain or isolate | result
CC[C@H]1OC(=O)[C@H](C)C(=O)[C@H](C)[C@@H](O[C@@H]2O[C@H](C)C[C@H](N(C)C)[C@H]2O)[C@@]2(C)C[C@@H](C)C(=NC(C)=O)[C@H](C)C(OC/C(=C\C=C\c3cccnc3)CO2)[C@]1(C)O | 33929 (ampicillin-resistant) | 8 µg/mL
CC[C@H]1OC(=O)C[C@@H](O)[C@H](C)[C@@H](O[C@@H]2O[C@H](C)[C@@H](O)[C@H](N(C)C)[C@H]2O)C(C=O)C[C@@H](C)C(=O)/C=C/C(C)=C/[C@@H]1COCc1ccccc1 | 33929 (ampicillin-resistant) | 0.5 µg/mL
CC[C@H]1OC(=O)[C@@](C)(F)C(=O)[C@H](C)[C@@H](O[C@@H]2O[C@H](C)C[C@H](N(C)C)[C@H]2O)[C@@]2(C)C[C@@H](C)C(=NC(C)=O)[C@H](C)[C@@H](OC/C(=N\OCC#Cc3cccc(N)n3)CO2)[C@]1(C)O | 33929 (ampicillin-resistant) | 4 µg/mL

Conditions beyond the fields shown may differ between rows.